A mixed list of measured activities; the numbers were collected in NIAID ChemDB.

Common to all: whole-cell or culture tests

ECn is the concentration giving n% inhibition of infection, replication or growth.

CSc1nsc(-c2ccc(OCCCCOc3ccc([N+](=O)[O-])cc3)cc2)c1C#N ; organism: Encephalomyocarditis virus ; cell line: HEP-2/L-929/VERO ; method: plaque count ; read-out: EC50 ; result: >0.5 µM
CCNCCCCNCCCCNCCCCNCCCCNCCCCNCCCCNCCCCNCCCCNCCCCNCC ; organism: Encephalitozoon cuniculi ; read-out: EC50 ; result: 0.63 µM
N#Cc1csnc1-c1ccccc1 ; strain or isolate: Encephalomyocarditis virus ; organism: Encephalomyocarditis virus ; cell line: L929 ; method: plaque count ; read-out: EC50 ; result: >100 µM
O=C1CCC(N2C(=O)c3ccccc3C2=O)C(=O)N1 ; tested at: 1 µg/mL ; organism: Encephalitozoon intestinalis ; cell line: MRC-5 ; read-out: inhibition ; result: 4.4%
N=C(N)c1ccc(CNCCCCCCNCc2ccc(C(=N)N)cc2)cc1 ; organism: Encephalitozoon cuniculi ; read-out: EC50 ; result: 95 µM
CSc1nsc(-c2ccc(OCCCOc3ccc(C#N)cc3)cc2)c1C#N ; organism: Encephalomyocarditis virus ; cell line: HEP-2/L-929/VERO ; method: plaque count ; read-out: EC50 ; result: >2 µM
CSc1nsc(-c2ccccc2)c1C#N ; strain or isolate: Encephalomyocarditis virus ; organism: Encephalomyocarditis virus ; cell line: L929 ; method: plaque count ; read-out: EC50 ; result: 10 µM
CSc1nsc(-c2ccc(OCCOc3ccc([N+](=O)[O-])cc3)cc2)c1C#N ; organism: Encephalomyocarditis virus ; cell line: HEP-2/L-929/VERO ; method: plaque count ; read-out: EC50 ; result: >1 µM
CSc1nsc(-c2ccc(OS(=O)(=O)c3ccc(C)cc3)cc2)c1C#N ; strain or isolate: Encephalomyocarditis virus ; organism: Encephalomyocarditis virus ; cell line: L929 ; method: plaque count ; read-out: EC50 ; result: >25 µM
CCNCCCCNCCCCNCCCCNCCCCNC/C=C/CNCCCCNCCCCNCCCCNCCCCNCC ; organism: Encephalitozoon cuniculi ; read-out: EC50 ; result: 0.62 µM
CSc1nsc(-c2ccc(OCCCOc3ccc([N+](=O)[O-])cc3)cc2)c1C#N ; organism: Encephalomyocarditis virus ; cell line: HEP-2/L-929/VERO ; method: plaque count ; read-out: EC50 ; result: >0.5 µM
CCNCCCCNCCCCNCCCCNCCCCNCCCCNCCCCNCCCCNCC ; organism: Encephalitozoon cuniculi ; read-out: EC50 ; result: 1.67 µM
COc1ccc(-c2snc(SC)c2C#N)cc1 ; strain or isolate: Encephalomyocarditis virus ; organism: Encephalomyocarditis virus ; cell line: L929 ; method: plaque count ; read-out: EC50 ; result: >10 µM
CCNCCCCNCCCCNCCCCNCCCCNCCO ; organism: Encephalitozoon cuniculi ; read-out: EC50 ; result: 62.5 µM
CSc1nsc(-c2ccc(OCCCCOc3ccccc3)cc2)c1C#N ; organism: Encephalomyocarditis virus ; cell line: HEP-2/L-929/VERO ; method: plaque count ; read-out: EC50 ; result: >20 µM

Repeating the first 2 entries:

smiles | tested at | strain or isolate | organism | cell line | method | read-out | result
CSc1nsc(-c2ccc(OCCCCOc3ccc([N+](=O)[O-])cc3)cc2)c1C#N | - | - | Encephalomyocarditis virus | HEP-2/L-929/VERO | plaque count | EC50 | >0.5 µM
CCNCCCCNCCCCNCCCCNCCCCNCCCCNCCCCNCCCCNCCCCNCCCCNCC | - | - | Encephalitozoon cuniculi | - | - | EC50 | 0.63 µM

Inhibition is in % at the dose shown (toxicity tests: loss of growth or viability). Rows are shuffled and stem from different studies. An empty or dashed field is not shown.